Test results from patent US9206191B2, “Indazoles for the treatment and prophylaxis of respiratory syncytial virus infection” (Hoffmann-La Roche Inc., priority 2012, dated 2015).
This is a selection: effects in other tests are not listed, and their absence says nothing.

System: RSV Long strain
Assay: Viral Cytopathic Effect (CPE) Assay
Type: cell-based, respiratory syncytial virus (RSV)
Conditions: read-out: CPE Long EC50, cell viability after 6 days, Cell Counting kit-8

| Structure (SMILES) | EC50 |
| --- | --- |
| CS(=O)(=O)c1nn(Cc2nc3cc(Cl)ccc3n2CCN2CCC(O)C2)c2cnccc12 (stereo not drawn) | 6 nM |
| CS(=O)(=O)c1nn(Cc2nc3cc(Cl)ccc3n2CCN2CCOCC2)c2cnccc12 | 13 nM |
| CS(=O)(=O)c1nn(Cc2nc3cc(Cl)ccc3n2CCN2CCC(O)CC2)c2cnccc12 | 3.5 nM |
